A mixed list of measured activities; the numbers were collected in NIAID ChemDB.

All rows: growth or infection tests; agent: Hepatitis C virus; endpoint: EC50

An empty or dashed field is not shown. Two numbers with a dash give a range or band. ECn is the concentration giving n% inhibition of infection, replication or growth. Rows are shuffled and stem from different studies.

SMILES	cells	mutations	read by	strain	value
NC(=S)Nc1ccccc1OCCCCCc1ccccc1	Ava5-EG(delta4AB)SEAP		reporter gene / fluorescence		0.001–1 µM
O=C(Cc1ccccc1)N/N=C/c1ccccc1OS(=O)(=O)c1ccccc1F	Huh7		replicon		>50 µM
Cc1ccc2ccccc2c1OCCCCCOc1cccc(NC(N)=S)c1	Ava5-EG(delta4AB)SEAP		reporter gene / fluorescence		0.001–1 µM
O=C(Cc1ccccc1)N/N=C/c1ccccc1OS(=O)(=O)c1ccc(-c2ccccc2)cc1	Huh7		replicon		>50 µM
CC1(C)CC(=O)C2=C(C1)Nc1c(O)cccc1N[C@@H]2c1ccc(OCc2ccccc2)cc1Cl			luciferase / reporter gene / replicon	1b	4.01 µM
CCCCCCCCOc1ccc(N(C(=O)CCC(=O)O)c2nc(-c3cccnc3)c(F)s2)cc1C(F)(F)F					<1 µM
O=C(Cc1ccccc1)N/N=C/c1ccccc1OS(=O)(=O)c1cccs1	Huh7		replicon		>50 µM
Cc1ccc(C2Nc3cccc(O)c3NC3=C2C(=O)CC(C)(C)C3)c2ccccc12			luciferase / reporter gene / replicon	1b	>32 µM
O=C(Cc1cccc(Br)c1)N/N=C/c1ccccc1NS(=O)(=O)c1ccc(C(F)(F)F)cc1	Huh7		replicon		>50 µM
CNC(=O)c1c(-c2ccc(F)cc2)oc2cc(N(CS(C)(=O)=O)OC)c(OCc3ccc(C#N)cc3)cc12	Huh7		replicon		<1 µM
O=C(Cc1ccccc1)N/N=C/c1ccccc1OS(=O)(=O)c1cccc(Cl)c1	Huh7		replicon		>50 µM
CNC(=O)c1c(-c2ccc(F)cc2)oc2cc(N)c(OCc3ccccc3)cc12	Huh7		replicon		<10 µM
O=C(CSc1ccccc1)N/N=C/c1ccccc1OS(=O)(=O)c1ccc(C(F)(F)F)cc1	Huh7		replicon		<5 µM
COc1ccc(-c2ccc(OCCCCCOc3cccc(NC(N)=S)c3)cc2)cc1	Ava5-EG(delta4AB)SEAP		reporter gene / fluorescence		0.001–1 µM
CNC(=O)c1c(-c2ccc(F)cc2)oc2cc(NCCN3CCOCC3)c(OC(C)C)cc12	Huh7		replicon		<30 µM
CC(=O)N1c2cccc(O)c2NC2=C(C(=O)CC(C)(C)C2)C1c1ccc(C#N)cc1Cl			luciferase / reporter gene / replicon	1b	32.41 µM
CC1CCC(C(=O)N(c2cc(-c3ccc(NC(=O)c4ccc(F)cc4)cc3)sc2C(=O)O)C(C)C)CC1			replicon	1b	<0.5 µM
CCOC(=O)c1ccc(NC(=O)COc2cc3c(C(=O)NC)c(-c4ccc(F)cc4)oc3cc2N(C)S(C)(=O)=O)cc1	Huh7		replicon		<10 µM
CC1CCC(C(=O)N(c2cc(-c3ccc(NC(=O)c4cccnn4)cc3)sc2C(=O)O)C(C)C)CC1			replicon	1b	<0.5 µM
CCCCCCCCOc1ccc(N(C(=O)CC(=O)OC)c2nc(-c3ccc(F)cc3)cs2)cc1					<1 µM
CC1CCC(C(=O)N(CC2CC2)c2cc(-c3ccc(NC(=O)c4cccnn4)cc3)sc2C(=O)O)CC1			replicon	1b	<0.5 µM
NC(=O)COc1ccc2c(c1)S(=O)(=O)N=C(c1c(O)c3cc(F)ccc3n(CCC3CC3)c1=O)N2			replicon	1a 45992	2.1 µM
CC1CCC(C(=O)N(c2cc(-c3ccc(NC(=O)c4cscn4)cc3)sc2C(=O)[O-])C(C)C)CC1.C[N+](C)(C)CCO			replicon	1a	<0.5 µM
CCCCCOc1ccc(N(C(=O)CN(C)C)c2nc(-c3cccnc3)cs2)cc1C(F)(F)F					<1 µM
CNC(=O)c1c(-c2ccc(F)cc2)oc2cc(S(=O)(=O)N3CCCC3)c(OC(C)C)cc12	Huh7		replicon		<10 µM
O=C(Cc1cccc(Cl)c1)N/N=C/c1c(Cl)cccc1OS(=O)(=O)c1ccc(C(F)(F)F)cc1	Huh7		replicon		<5 µM
CNC(=O)c1c(-c2ccc(F)cc2)oc2cc(N3CCOCC3)c(OCc3c(C)noc3C)cc12	Huh7		replicon		<10 µM
CC1CCC(C(=O)N(c2cc(-c3ccc(NC(=O)c4cccc(F)c4)cc3)sc2C(=O)O)C(C)C)CC1			replicon	1a	<0.5 µM
COc1c(-c2ccc3cc(NS(C)(=O)=O)ccc3c2)cc(-n2ccc(=O)[nH]c2=O)cc1C(C)(C)C	Huh7	C316Y	luciferase	genotype 1a H77	1.413 µM
CCCCCCOc1ccc(N(C(N)=O)c2nc(-c3cccnc3)cs2)cc1					<1 µM
CN(c1ccccc1/C=N/NC(=O)Cc1cccnc1)S(=O)(=O)c1ccc(C(F)(F)F)cc1	Huh7		replicon		<5 µM
CC(=O)N1c2cccc(O)c2NC2=C(C(=O)CC(C)(C)C2)C1c1ccc(Cl)cc1F			luciferase / reporter gene / replicon	1b	1.64 µM
NC(=S)Nc1ccc2c(c1)Cc1cc(Br)ccc1-2	Ava5-EG(delta4AB)SEAP		reporter gene / fluorescence		0.001–1 µM
Cc1cc(OCc2ccccc2)ccc1C1C2=C(CC(C)(C)CC2=O)Nc2c(O)cccc2N1C(=O)CC#N			luciferase / reporter gene / replicon	1b	1.83 µM
CNC(=O)c1c(-c2ccc(F)cc2)oc2cc(N(C)S(C)(=O)=O)c(OCC(=O)Nc3nncs3)cc12	Huh7		replicon		<1 µM
CCCN(CCC)c1ccc2c(c1)Cc1cc(NC(N)=S)ccc1-2	Ava5-EG(delta4AB)SEAP		reporter gene / fluorescence		0.001–1 µM
COc1cccc(CC(=O)N/N=C/c2ccccc2OS(=O)(=O)Cc2cccc(C(F)(F)F)c2)c1	Huh7		replicon		>50 µM

Again, the opening 2 rows:

NC(=S)Nc1ccccc1OCCCCCc1ccccc1 ; cells: Ava5-EG(delta4AB)SEAP ; read by: reporter gene / fluorescence ; value: 0.001–1 µM
O=C(Cc1ccccc1)N/N=C/c1ccccc1OS(=O)(=O)c1ccccc1F ; cells: Huh7 ; read by: replicon ; value: >50 µM